By UniProt entry, the sequences of proteins in these tests, tags left out. Where a name states a change or a piece, a line headed by the entry shows the natural chain unless it says otherwise.
UniProt P28329: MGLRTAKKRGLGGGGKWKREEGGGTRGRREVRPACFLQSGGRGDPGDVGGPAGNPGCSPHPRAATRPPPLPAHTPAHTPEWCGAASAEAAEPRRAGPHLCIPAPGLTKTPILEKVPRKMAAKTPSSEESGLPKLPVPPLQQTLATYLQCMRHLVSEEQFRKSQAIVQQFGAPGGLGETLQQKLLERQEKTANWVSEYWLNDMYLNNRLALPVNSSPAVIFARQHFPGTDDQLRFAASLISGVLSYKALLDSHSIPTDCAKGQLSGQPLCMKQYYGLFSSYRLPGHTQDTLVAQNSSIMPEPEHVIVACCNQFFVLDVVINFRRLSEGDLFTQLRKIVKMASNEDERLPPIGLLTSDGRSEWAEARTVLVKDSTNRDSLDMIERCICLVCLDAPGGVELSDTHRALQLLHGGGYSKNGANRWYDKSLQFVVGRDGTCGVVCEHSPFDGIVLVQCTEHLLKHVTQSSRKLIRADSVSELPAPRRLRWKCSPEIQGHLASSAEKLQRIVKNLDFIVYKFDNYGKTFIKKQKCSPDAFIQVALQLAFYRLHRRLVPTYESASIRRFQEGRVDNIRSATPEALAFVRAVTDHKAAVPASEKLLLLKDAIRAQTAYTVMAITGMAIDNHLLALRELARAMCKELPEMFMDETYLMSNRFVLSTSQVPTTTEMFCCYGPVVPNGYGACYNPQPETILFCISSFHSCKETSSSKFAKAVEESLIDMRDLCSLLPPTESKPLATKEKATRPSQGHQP
UniProt P41594, whole entry, looked up: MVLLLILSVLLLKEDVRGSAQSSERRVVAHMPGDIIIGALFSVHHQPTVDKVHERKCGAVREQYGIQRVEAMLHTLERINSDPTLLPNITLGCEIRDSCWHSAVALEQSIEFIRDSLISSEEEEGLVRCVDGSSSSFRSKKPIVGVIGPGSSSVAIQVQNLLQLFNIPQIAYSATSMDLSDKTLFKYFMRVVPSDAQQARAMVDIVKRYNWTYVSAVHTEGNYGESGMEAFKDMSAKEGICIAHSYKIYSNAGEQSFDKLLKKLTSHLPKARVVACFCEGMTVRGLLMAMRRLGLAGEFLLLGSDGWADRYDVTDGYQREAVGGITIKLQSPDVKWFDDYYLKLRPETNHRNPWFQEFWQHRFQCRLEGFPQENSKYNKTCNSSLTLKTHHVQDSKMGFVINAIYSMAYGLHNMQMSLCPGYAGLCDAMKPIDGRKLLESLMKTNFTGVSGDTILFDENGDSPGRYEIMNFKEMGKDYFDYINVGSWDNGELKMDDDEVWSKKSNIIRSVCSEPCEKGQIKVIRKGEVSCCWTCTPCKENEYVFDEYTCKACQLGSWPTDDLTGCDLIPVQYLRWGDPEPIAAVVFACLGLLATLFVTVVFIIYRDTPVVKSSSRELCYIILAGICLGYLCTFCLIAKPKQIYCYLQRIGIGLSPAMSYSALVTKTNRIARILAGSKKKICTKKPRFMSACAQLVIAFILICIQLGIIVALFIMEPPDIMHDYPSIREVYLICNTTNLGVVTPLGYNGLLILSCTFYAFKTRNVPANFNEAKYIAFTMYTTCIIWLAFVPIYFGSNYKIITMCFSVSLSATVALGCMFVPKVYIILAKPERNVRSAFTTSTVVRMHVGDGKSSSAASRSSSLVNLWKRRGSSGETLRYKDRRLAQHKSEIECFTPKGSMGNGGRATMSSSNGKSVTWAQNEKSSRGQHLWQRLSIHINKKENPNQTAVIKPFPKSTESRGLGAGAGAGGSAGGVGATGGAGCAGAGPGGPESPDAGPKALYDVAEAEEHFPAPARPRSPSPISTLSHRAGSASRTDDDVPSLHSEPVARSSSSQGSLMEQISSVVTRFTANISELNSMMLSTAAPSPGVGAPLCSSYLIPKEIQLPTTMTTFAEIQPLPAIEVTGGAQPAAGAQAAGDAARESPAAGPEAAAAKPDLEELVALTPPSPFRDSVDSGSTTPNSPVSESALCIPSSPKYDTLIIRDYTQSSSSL
UniProt P36544, whole entry, looked up: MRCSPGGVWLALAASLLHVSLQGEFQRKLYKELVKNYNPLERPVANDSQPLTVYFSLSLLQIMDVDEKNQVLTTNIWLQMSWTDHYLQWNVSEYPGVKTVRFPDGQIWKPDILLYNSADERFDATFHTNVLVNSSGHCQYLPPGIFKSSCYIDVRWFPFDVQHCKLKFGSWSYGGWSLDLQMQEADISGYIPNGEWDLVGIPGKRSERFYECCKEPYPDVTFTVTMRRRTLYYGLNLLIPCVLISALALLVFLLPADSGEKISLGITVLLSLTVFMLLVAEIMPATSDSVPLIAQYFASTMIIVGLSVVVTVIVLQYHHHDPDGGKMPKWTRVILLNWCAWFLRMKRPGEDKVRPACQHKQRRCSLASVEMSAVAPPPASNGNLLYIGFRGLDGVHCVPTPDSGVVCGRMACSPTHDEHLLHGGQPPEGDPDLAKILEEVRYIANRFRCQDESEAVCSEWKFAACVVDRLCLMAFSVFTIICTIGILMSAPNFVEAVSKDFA
UniProt P47901: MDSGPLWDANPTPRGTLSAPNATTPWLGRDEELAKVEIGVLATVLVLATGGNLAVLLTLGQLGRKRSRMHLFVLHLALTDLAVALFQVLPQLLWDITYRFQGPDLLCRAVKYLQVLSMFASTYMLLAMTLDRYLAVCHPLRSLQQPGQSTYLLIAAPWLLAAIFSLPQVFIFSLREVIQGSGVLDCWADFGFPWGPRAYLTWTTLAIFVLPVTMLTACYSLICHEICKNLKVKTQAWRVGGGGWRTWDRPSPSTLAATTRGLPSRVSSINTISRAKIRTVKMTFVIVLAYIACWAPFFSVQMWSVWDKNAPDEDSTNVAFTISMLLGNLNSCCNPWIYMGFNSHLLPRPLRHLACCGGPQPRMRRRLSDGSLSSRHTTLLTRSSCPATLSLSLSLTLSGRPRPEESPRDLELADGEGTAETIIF
UniProt P03372, whole entry, looked up: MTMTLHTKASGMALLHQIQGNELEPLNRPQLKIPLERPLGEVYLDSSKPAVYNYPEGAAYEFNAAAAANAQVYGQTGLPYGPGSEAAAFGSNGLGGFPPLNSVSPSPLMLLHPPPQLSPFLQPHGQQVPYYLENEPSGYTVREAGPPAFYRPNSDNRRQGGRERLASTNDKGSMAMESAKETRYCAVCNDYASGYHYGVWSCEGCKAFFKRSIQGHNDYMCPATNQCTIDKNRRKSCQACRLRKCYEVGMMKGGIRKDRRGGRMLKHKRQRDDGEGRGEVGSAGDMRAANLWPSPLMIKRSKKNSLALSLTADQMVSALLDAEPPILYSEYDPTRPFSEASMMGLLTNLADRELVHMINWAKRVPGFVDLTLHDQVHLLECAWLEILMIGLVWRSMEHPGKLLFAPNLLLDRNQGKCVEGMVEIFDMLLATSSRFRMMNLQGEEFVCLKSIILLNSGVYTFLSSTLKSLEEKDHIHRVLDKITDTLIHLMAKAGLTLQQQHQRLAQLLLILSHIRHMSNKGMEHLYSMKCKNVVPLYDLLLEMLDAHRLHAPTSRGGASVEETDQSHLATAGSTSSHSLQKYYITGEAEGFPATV
UniProt P19493: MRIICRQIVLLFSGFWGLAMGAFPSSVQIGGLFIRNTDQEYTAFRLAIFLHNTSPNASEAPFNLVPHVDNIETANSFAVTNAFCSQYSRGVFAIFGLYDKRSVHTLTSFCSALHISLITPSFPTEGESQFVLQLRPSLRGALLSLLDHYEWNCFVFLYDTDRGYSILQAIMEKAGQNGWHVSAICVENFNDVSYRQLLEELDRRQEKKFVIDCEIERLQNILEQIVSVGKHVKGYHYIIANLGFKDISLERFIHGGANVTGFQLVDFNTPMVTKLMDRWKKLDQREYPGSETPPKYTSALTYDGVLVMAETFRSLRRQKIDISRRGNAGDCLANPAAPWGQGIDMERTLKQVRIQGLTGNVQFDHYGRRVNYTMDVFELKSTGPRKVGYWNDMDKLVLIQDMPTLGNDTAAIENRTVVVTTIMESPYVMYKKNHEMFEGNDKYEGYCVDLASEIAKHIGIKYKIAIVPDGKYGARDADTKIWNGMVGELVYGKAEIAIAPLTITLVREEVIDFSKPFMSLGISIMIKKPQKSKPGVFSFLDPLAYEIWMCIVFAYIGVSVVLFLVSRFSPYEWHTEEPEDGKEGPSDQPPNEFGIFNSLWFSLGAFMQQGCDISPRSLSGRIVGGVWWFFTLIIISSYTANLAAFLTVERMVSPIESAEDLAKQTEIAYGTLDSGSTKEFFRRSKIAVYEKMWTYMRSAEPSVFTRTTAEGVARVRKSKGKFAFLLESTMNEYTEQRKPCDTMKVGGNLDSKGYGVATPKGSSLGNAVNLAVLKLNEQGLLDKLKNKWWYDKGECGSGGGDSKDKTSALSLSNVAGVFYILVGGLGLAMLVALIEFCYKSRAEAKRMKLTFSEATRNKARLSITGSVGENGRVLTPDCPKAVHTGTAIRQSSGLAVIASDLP
UniProt P19490: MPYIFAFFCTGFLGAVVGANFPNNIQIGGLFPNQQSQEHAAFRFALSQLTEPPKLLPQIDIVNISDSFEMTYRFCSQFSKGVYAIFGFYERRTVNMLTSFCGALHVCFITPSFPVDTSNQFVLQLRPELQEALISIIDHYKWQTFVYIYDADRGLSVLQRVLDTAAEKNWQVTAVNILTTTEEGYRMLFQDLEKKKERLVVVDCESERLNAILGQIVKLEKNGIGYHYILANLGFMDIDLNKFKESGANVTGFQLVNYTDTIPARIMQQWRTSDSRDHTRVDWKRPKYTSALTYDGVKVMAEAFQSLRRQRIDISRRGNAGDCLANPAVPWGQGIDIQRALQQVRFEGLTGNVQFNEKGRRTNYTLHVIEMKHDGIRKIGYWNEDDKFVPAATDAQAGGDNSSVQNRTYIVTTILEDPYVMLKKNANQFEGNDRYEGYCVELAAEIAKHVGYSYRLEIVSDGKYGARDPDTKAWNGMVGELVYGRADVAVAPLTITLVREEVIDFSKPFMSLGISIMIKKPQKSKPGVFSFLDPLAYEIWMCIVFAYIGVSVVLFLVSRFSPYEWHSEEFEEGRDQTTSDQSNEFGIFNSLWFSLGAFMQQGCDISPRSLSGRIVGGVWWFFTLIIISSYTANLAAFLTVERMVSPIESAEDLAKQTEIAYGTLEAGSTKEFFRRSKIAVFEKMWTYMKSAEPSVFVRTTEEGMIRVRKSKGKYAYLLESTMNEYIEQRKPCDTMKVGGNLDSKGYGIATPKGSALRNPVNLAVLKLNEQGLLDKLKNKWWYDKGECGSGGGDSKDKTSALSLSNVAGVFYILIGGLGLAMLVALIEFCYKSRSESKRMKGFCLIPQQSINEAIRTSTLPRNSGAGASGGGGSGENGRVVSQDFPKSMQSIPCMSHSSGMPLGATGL
UniProt P21452, whole entry, looked up: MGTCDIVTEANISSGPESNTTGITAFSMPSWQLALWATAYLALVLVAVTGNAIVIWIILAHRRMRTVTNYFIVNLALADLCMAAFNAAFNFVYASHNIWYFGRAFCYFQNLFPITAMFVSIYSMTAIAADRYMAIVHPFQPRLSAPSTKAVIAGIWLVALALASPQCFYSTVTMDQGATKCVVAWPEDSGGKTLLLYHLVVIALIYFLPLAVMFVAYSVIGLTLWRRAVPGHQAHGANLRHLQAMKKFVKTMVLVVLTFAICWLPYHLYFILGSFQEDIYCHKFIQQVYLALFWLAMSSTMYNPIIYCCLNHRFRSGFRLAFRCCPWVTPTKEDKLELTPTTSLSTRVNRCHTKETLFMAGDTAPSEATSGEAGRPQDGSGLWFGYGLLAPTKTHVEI
UniProt P30411, whole entry, looked up: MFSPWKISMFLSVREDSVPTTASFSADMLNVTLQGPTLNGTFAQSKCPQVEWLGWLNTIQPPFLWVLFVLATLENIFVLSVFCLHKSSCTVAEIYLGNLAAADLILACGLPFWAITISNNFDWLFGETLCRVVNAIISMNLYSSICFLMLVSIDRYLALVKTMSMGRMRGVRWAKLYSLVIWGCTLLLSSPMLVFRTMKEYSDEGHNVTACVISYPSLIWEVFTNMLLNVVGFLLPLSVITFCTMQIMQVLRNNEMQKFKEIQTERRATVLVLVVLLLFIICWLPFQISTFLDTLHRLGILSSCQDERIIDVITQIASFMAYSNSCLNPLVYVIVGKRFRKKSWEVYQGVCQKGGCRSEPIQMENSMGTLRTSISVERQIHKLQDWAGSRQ
UniProt P25103, whole entry, looked up: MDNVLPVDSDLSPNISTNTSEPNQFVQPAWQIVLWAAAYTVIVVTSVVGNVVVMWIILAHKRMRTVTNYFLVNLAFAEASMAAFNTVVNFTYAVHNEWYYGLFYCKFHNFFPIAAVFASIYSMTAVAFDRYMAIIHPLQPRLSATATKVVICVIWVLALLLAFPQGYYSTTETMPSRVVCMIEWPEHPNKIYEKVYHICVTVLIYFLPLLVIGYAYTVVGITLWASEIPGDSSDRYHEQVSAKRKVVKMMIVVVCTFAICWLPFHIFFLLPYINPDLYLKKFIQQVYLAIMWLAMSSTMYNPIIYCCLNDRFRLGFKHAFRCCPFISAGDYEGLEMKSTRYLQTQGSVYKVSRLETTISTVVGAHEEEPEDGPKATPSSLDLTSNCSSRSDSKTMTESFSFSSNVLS

According to ChEMBL document CHEMBL5034007, “Discovery of Methylene Thioacetal-Incorporated α-RgIA Analogues as Potent and Stable Antagonists of the Human α9α10 Nicotinic Acetylcholine Receptor for the Treatment of Neuropathic Pain” (2021):

Columns and labels:
[1] = molecular target: Choline O-acetyltransferase (Homo sapiens) (UniProt P28329); assay: Inhibition of choline acetyl transferase (unknown origin); settings: concentration not given here
[2] = molecular target: Metabotropic glutamate receptor 1 (Homo sapiens) (UniProt Q13255); assay: Displacement of [3H]quisqualate from mGluR1 (unknown origin) at 10 uM relative to control
[3] = molecular target: Metabotropic glutamate receptor 5 (Homo sapiens) (UniProt P41594); assay: Displacement of [3H]quisqualate from mGluR5 (unknown origin) at 10 uM relative to control
[4] = molecular target: Oxytocin receptor (Homo sapiens) (UniProt P30559); assay: Displacement of [3H]-oxytocin from Oxytocin receptor (unknown origin) at 10 uM relative to control
Homo sapiens [5] = organism: Homo sapiens; assay: Displacement of [3H]-Strychnine from glycine receptor (unknown origin) at 10 uM relative to control
Homo sapiens [6] = organism: Homo sapiens; assay: Displacement of [3H]-MDL 105519 from glycine receptor (unknown origin) at 10 uM relative to control
[7] = molecular target: D(4) dopamine receptor (Homo sapiens) (UniProt P21917); assay: Displacement of [3H]-methylspiperone from dopamine D4 receptor (unknown origin) at 10 uM relative to control
Rattus norvegicus = organism: Rattus norvegicus; assay: Displacement of [3H]kainic acid from rat kainate receptor at 10 uM by radioligand binding assay relative to control
[8] = molecular target: Platelet-activating factor receptor (Homo sapiens) (UniProt P25105); assay: Displacement of [3H]C18-PAF from PAFR (unknown origin) at 10 uM by scintillation counting analysis relative to control
[9] = molecular target: Neuronal acetylcholine receptor subunit alpha-7 (Homo sapiens) (UniProt P36544); assay: Displacement of [125I]alpha-Btx from nicotinic acetylcholine receptor alpha7 (unknown origin) at 10 uM relative to control; settings: filed as antagonist
[10] = molecular target: Vasopressin V1b receptor (Homo sapiens) (UniProt P47901); assay: Displacement of [3H]AVP from V1b receptor (unknown origin) at 10 uM by scintillation counting analysis relative to control
[11] = molecular target: Estrogen receptor (Homo sapiens) (UniProt P03372); assay: Displacement of [3H]estradiol from human ER at 10 uM after 1200 mins by scintillation counting analysis relative to control
[12] = molecular target: G protein-activated inward rectifier potassium channel 4 (Rattus norvegicus) (UniProt P48548); assay: Displacement of [3H]glibenclamide from rat KATP at 10 uM after 60 mins by scintillation counting analysis relative to control
[13] = molecular target: Bone morphogenetic protein 1 (Homo sapiens) (UniProt P13497); assay: Displacement of [3H]TCP from PCP (unknown origin) at 10 uM after 60 mins by scintillation counting method relative to control
[14] = molecular target: Glutamate receptor ionotropic, AMPA (Rattus norvegicus) (UniProt P19491+P19492+P19493+P19490); assay: Displacement of [3H]AMPA from rat brain AMPA receptor at 10 uM after 60 mins by scintillation counting method relative to control
[15] = molecular target: Type-2 angiotensin II receptor (Homo sapiens) (UniProt P50052); assay: Displacement of [125I]CGP 42112A from recombinant human AT2 at 10 uM after 240 mins by scintillation counting method relative to control
[16] = molecular target: Vasopressin V1a receptor (Homo sapiens) (UniProt P37288); assay: Displacement of [3H]AVP from human recombinant V1a receptor at 10 uM after 60 mins by scintillation counting analysis relative to control
[17] = molecular target: Muscarinic acetylcholine receptor M3 (Homo sapiens) (UniProt P20309); assay: Displacement of [3H]4-DAMP from human recombinant M3 receptor at 10 uM after 60 mins by scintillation counting analysis relative to control
[18] = molecular target: Substance-K receptor (Homo sapiens) (UniProt P21452); assay: Displacement of [125I]NKA from human recombinant NK2 receptor at 10 uM after 60 mins by scintillation counting analysis relative to control
[19] = molecular target: Cannabinoid receptor 1 (Homo sapiens) (UniProt P21554); assay: Displacement of [3H]CP 55940 from recombinant human CB1 receptor at 10 uM after 30 mins by scintillation counting method relative to control
[20] = molecular target: B2 bradykinin receptor (Homo sapiens) (UniProt P30411); assay: Displacement of [3H]bradykinin from human recombinant B2 receptor at 10 uM after 60 mins by scintillation counting analysis relative to control
[21] = molecular target: Glucocorticoid receptor (Homo sapiens) (UniProt P04150); assay: Displacement of [3H]dexamethasone from human glucocorticoid receptor at 10 uM after 360 mins by scintillation counting method relative to control
[22] = molecular target: Beta-1 adrenergic receptor (Homo sapiens) (UniProt P08588); assay: Displacement of [3H](-)CGP 12177 from human adrenergic beta1 receptor at 10 uM after 60 mins by scintillation counting analysis relative to control
[23] = molecular target: Adenosine receptor A1 (Homo sapiens) (UniProt P30542); assay: Displacement of [3H]-DPCPX from human recombinant adenosine A1 receptor at 10 uM after 60 mins by scintillation counting analysis relative to control
[24] = molecular target: Substance-P receptor (Homo sapiens) (UniProt P25103); assay: Displacement of [125I]-Substance P LYS3 from human recombinant NK1 receptor at 10 uM after 30 mins by scintillation counting analysis relative to control
[25] = molecular target: Histamine H1 receptor (Homo sapiens) (UniProt P35367); assay: Displacement of [3H]pyrilamine from human recombinant histamine H1 receptor at 10 uM after 60 mins by scintillation counting analysis relative to control
Homo sapiens [26] = organism: Homo sapiens; assay: Displacement of [3H]diltiazem from L-type calcium channel diltiazem binding site (unknown origin) at 10 uM by radioligand binding assay relative to control
[27] = molecular target: Endothelin receptor type B (Homo sapiens) (UniProt P24530); assay: Displacement of [125I]endothelin-1 from human recombinant endothelin ETB receptor at 10 uM after 120 mins by scintillation counting analysis relative to control

Q: Which inhibition [1] does the source give for `C[C@H](O)[C@H]1NC(=O)[C@@H]2NC(=O)[C@@H](NC(=O)CN)CSSC[C@H](NC(=O)[C@H](CCCNC(=N)N)NC(=O)[C@@H]3CCCN3C(=O)[C@H](CC(O)O)NC1=O)C(=O)N[C@@H](CCCNC(=N)N)C(=O)N[C@@H](Cc1ccc(O)c(I)c1)C(=O)N[C@@H](CCC(N)=O)C(=O)N[C@H](C(=O)N[C@H](CC(=O)N[C@@H](CCCNC(=N)N)C(=O)O)Cc1ccc(O)cc1)CSCS2` here?
A: Its inhibition is 2.2%.

Q: What about the Activity [2] of the same molecule?
A: Its Activity is -36.2%.

Q: What about the Activity [3] of the same molecule?
A: Its Activity is -25.4%.

Q: What about the Activity [4] of the same molecule?
A: Its Activity is -12%.

Q: What about the Activity (Homo sapiens [5]) of the same molecule?
A: Its Activity is 22.1%.

Q: And the Activity (Homo sapiens [6])?
A: Its Activity is -13.4%.

Q: And the Activity [7]?
A: Its Activity is 17%.

Q: And the Activity (Rattus norvegicus)?
A: The Activity was 22.4%.

Q: What about the Activity [8] of the same molecule?
A: The Activity was 3.8%.

Q: And the Activity [9]?
A: The Activity was 41.1%.

Q: And the Activity [10]?
A: Its Activity is -0.6%.

Q: And the Activity [11]?
A: Its Activity is -8.5%.

Q: And the Activity [12]?
A: The Activity was -5%.

Q: And the Activity [13]?
A: Its Activity is -9.5%.

Q: What about the Activity [14] of the same molecule?
A: Its Activity is 0.8%.

Q: And the Activity [15]?
A: Its Activity is 19.3%.

Q: And the Activity [16]?
A: Its Activity is 5.3%.

Q: What about the Activity [17] of the same molecule?
A: The Activity was -2.8%.

Q: And the Activity [18]?
A: The Activity was 6%.

Q: And the Activity [19]?
A: Its Activity is -0.4%.

Q: And the Activity [20]?
A: Its Activity is 0.8%.

Q: And the Activity [21]?
A: Its Activity is -2.9%.

Q: What about the Activity [22] of the same molecule?
A: The Activity was 18.3%.

Q: What about the Activity [23] of the same molecule?
A: The Activity was 3.3%.

Q: And the Activity [24]?
A: Its Activity is -3.5%.

Q: And the Activity [25]?
A: The Activity was 5.6%.

Q: What about the Activity (Homo sapiens [26]) of the same molecule?
A: The Activity was -20.3%.

Q: What about the Activity [27] of the same molecule?
A: Its Activity is -35.6%.
